What was measured:
[1] = molecular target: bovine serum albumin, bovine, P02769 25-607; test: SPR, BSA immobilized, pentabody at 10 nM
[2] = molecular target: bovine serum albumin, bovine, P02769 25-607; test: SPR, BSA immobilized, multivalent binding

| Substance | binding capacity (RU) [1] | koff [2] |
| --- | --- | --- |
| CTB-based pentabody C3C-BSA8 | 45 ru |  |
| CTB-based pentabody C3C-BSA12 | 700 ru | < 1e-05 s⁻¹ |
| CTB-based pentabody C3C-BSA16 | 700 ru |  |

From patent US20110318348
